Measured values: PMC2791445, “A Novel Phase Variation Mechanism in the Meningococcus Driven by a Ligand-Responsive Repressor and Differential Spacing of Distal Promoter Elements” (PLoS Pathogens, 2009)
For at least one entry, the source does not settle the construct or the ends of the probe.

What was measured:
Test in all cases: DNase I footprinting
[1] = target: NadR (NMB1843), recombinant (Neisseria meningitidis MC58) (UniProt Q7DD70); conditions: OpI and OpII protected from 30 nM dimer, OpIII -55 to -85 also protected; Footprinting: 20 mM Tris-HCl pH 7.9, 50 mM KCl, 10 mM MgCl2, 0.01% NP-40, 10% glycerol, 200 ng salmon sperm DNA, 15 min RT; recombinant protein; protein details: N-terminal His (pET15b); label: 5'-32P at BamHI end; probe letters rebuilt from the primers and the genome
[2] = tested on: RNA polymerase holoenzyme (Escherichia coli); conditions: 0.25-5 U RNAP, protects -37 to +17, -43 to -76, -116 to -154; Footprinting: 20 mM Tris-HCl pH 7.9, 50 mM KCl, 10 mM MgCl2, 0.01% NP-40, 10% glycerol, 200 ng salmon sperm DNA, 15 min RT; commercial protein; label: 5'-32P at BamHI end; probe letters rebuilt from the primers and the genome
[3] = target: RNAP alpha-subunit (UniProt P0A7Z4); conditions: 0.17-11 uM alpha, TAAA repeats first, then -43 to -76 and -116 to -154; Footprinting: 20 mM Tris-HCl pH 7.9, 50 mM KCl, 10 mM MgCl2, 0.01% NP-40, 10% glycerol, 200 ng salmon sperm DNA, 15 min RT; recombinant protein; protein details: N-terminal His (pHTT7f1-NHalpha); label: 5'-32P at BamHI end; probe letters rebuilt from the primers and the genome

Row | Sequence | binding result [1] | binding result [2] | binding result [3]
1 | TGACGTCGACGTCCTCGATTACGAAGGCAAAAAATTGGTTATCCACCATATCTAAATCCGACAAAAAGGCCGTCTGAACATTCAGACGGCAACCCATATCCTGACAAAATTAAGACACGACACCGGCAGAATTGACATCAGCATAATATGCACATATTAACAGATATTAATGCCGAACTACCTAACTGCAAGAATTAAATAAATAAATAAATAAATAAATAAATAAATAAATTGCGACAATGTATTGTATATATGCCTCCTTTCATATATACTTTAATATGTAAACAAACTTGGTGGGGATAAAATACTTACAAAAGATTTCCGCCCCATTTTTTATCCACTCACAAAGGTAATGAGCGTAG / GATCCTACGCTCATTACCTTTGTGAGTGGATAAAAAATGGGGCGGAAATCTTTTGTAAGTATTTTATCCCCACCAAGTTTGTTTACATATTAAAGTATATATGAAAGGAGGCATATATACAATACATTGTCGCAATTTATTTATTTATTTATTTATTTATTTATTTATTTAATTCTTGCAGTTAGGTAGTTCGGCATTAATATCTGTTAATATGTGCATATTATGCTGATGTCAATTCTGCCGGTGTCGTGTCTTAATTTTGTCAGGATATGGGTTGCCGTCTGAATGTTCAGACGGCCTTTTTGTCGGATTTAGATATGGTGGATAACCAATTTTTTGCCTTCGTAATCGAGGACGTCGACGTCATGCA [PnadA, 9 TAAA repeats] | binds |  | 
2 | TGACGTCGACGTCCTCGATTACGAAGGCAAAAAATTGGTTATCCACCATATCTAAATCCGACAAAAAGGCCGTCTGAACATTCAGACGGCAACCCATATCCTGACAAAATTAAGACACGACACCGGCAGAATTGACATCAGCATAATATGCACATATTAACAGATATTAATGCCGAACTACCTAACTGCAAGAATTAAATAAATAAATAAATAAATAAATAAATAAATAAATTGCGACAATGTATTGTATATATGCCTCCTTTCATATATACTTTAATATGTAAACAAACTTGGTGGGGATAAAATACTTACAAAAGATTTCCGCCCCATTTTTTATCCACTCACAAAGGTAATGAGCGTAG / GATCCTACGCTCATTACCTTTGTGAGTGGATAAAAAATGGGGCGGAAATCTTTTGTAAGTATTTTATCCCCACCAAGTTTGTTTACATATTAAAGTATATATGAAAGGAGGCATATATACAATACATTGTCGCAATTTATTTATTTATTTATTTATTTATTTATTTATTTAATTCTTGCAGTTAGGTAGTTCGGCATTAATATCTGTTAATATGTGCATATTATGCTGATGTCAATTCTGCCGGTGTCGTGTCTTAATTTTGTCAGGATATGGGTTGCCGTCTGAATGTTCAGACGGCCTTTTTGTCGGATTTAGATATGGTGGATAACCAATTTTTTGCCTTCGTAATCGAGGACGTCGACGTCATGCA [PnadA footprint probe for RNAP (repeat number not in text)] |  | binds | binds
